We go through two substances from patent US20250313900A1, “COMPOSITIONS AND THERAPEUTIC AGENTS FOR MODULATING INFLAMMATORY RESPONSES ON BOTH TUMOR AND IMMUNE CELLS” (THE METHODIST HOSPITAL, priority 2022, published 2025).

Amino acid sequences for entries named in this document (tags omitted). A change or cut given only in a name is not applied to a line headed by its entry.
UniProt Q8CJ61: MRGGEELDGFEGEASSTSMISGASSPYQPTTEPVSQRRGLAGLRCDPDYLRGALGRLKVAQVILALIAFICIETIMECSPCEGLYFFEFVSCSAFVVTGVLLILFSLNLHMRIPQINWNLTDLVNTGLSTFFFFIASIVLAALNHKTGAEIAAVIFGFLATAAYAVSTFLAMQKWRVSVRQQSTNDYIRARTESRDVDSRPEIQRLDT

For one test, the system named is MHC II. In words: MHC II assay by high-throughput flow cytometry (compound screening). In kind it is cell-based. In general terms: Flow cytometry measures light scatter and fluorescence of single cells or particles in a stream.
A further test has as its system G-CSF. In words: Inhibition of EGF-mediated G-CSF secretion from tumor cells. The test is classed as cell-based.
In the next test the test system is IL-6. Description: IL-6 production (compound screening). In kind it is cell-based.
The subject of test [1] is NF-kB promoter activity in LLC cells. Description: NF-kB promoter activity, CMTM4-expressing NF-kB/SEAP reporter stable LLC cells. In kind it is cell-based, murine.
For test [2], the system named is NF-kB promoter activity in 4T1 cells. In words: NF-kB promoter activity, CMTM4-expressing NF-kB/SEAP reporter stable 4T1 cells. In kind it is cell-based, murine. Particulars: 4T1 reporter cells.
The next test concerns glycolysis. In words: Test glycolysis (compound screening). The test is classed as cell-based.
Another test relates to p-Akt/p-mTOR. Description: p-Akt/p-mTOR (compound screening). In kind it is cell-based.
For test [3], the target named is CMTM4 (Mus musculus, UniProt Q8CJ61). Description: CMTM4 level (compound screening). In kind it is cell-based.
Test [4] relates to CMTM4. In words: Western blot of CMTM4 protein in HCC827 CT cells. The following applies: 1 μM. In kind it is cell-based, human. In general terms: A western blot detects proteins with antibodies after separation by electrophoresis.

Take 5-Methoxysterigmatocysin: the “MHC II (%)” value in the test with MHC II was determined as 341.5%. Moreover, in the test on G-CSF, the “G-CSF (%)” value stood at 1.533%.
In the case of Swazine, the “MHC II (%)” value in the test with MHC II is 304.8%. Further, the “IL-6 (%)” value with IL-6 is −6.7679%. In addition, in test [1], the “NF-kB (%)-LLC” value came out at 46.39%. For the same substance, in test [2], the “NF-kB (%)-4T1” value stood at 50.81%. Also, the “G-CSF (%)” value with G-CSF came out at 2.692%. For the same substance, the Glycolysis result in the test on glycolysis is “Inhibit”. Besides, the p-Akt/p-mTOR result in the test with p-Akt/p-mTOR is “Decrease”. In addition, the CMTM4 result on CMTM4 [3] is on record as “No difference”. Further, in the test on CMTM4 [4], the CMTM4 protein expression entry is listed as “decreased”.
